Anti-infective test results gathered from many reports (values: NIAID ChemDB through PubChem).

Shared fields: tests on isolated targets

Inhibition is in % at the dose shown (toxicity tests: loss of growth or viability). Blank or dashed fields: not listed here. Two numbers with a dash give a range or band. Rows are shuffled and stem from different studies. ICn is the concentration giving n% inhibition.

compound,read by,protein,dose,endpoint,strain or isolate,species,value
CS(=O)(=O)Nc1cn2ccn(Cc3cccc(Cl)c3)c(=O)c2c(O)c1=O,ELISA,Integrase,,IC50,,HIV-1,<0.01 µM
Nc1nc(N)c2nc(Cc3cccc(C(F)(F)F)c3)c(Cc3cccc(C(F)(F)F)c3)nc2n1,,Dihydrofolate reductase,,IC50,TYPE 1,Cryptosporidium parvum,>10 µM
O=C(O)c1cc2nc(-c3ccc(Cl)cc3Cl)cc(-c3ccccc3)n2n1,,RNA-dependent RNA polymerase,,IC50,,Hepatitis C virus,>10 µM
COc1ccccc1N1CCN(c2cncc(-c3ccc(C(C)(C)C)cc3)n2)CC1,,UL97 kinase,10 µM,inhibition,,Cytomegalovirus,>15%
O=C(O)c1cc2nccc(-c3ccc(-c4ccc(Cl)s4)cc3)n2n1,,RNA-dependent RNA polymerase,,IC50,,Hepatitis C virus,>10 µM
Clc1ccc(-c2cncc(NCc3ccccc3)n2)cc1,,UL97 kinase,10 µM,inhibition,,Cytomegalovirus,>15%
O=C(O)c1cc2nc(-c3ccc(Cl)cc3)cc(Nc3ccc(N4CCOCC4)cc3)n2n1,,RNA-dependent RNA polymerase,,IC50,,Hepatitis C virus,>10 µM
Cc1ccc(N2CCN(c3cncc(-c4csc5ccccc45)n3)CC2)cc1,,UL97 kinase,10 µM,inhibition,,Cytomegalovirus,>15%
O=C(O)c1cc2nc(-c3ccc(Cc4ccccc4)cc3)c(C3CCCCC3)c(=O)n2[nH]1,,RNA-dependent RNA polymerase,,IC50,,Hepatitis C virus,1–10 µM
CSc1ccc(-c2cncc(N3CCN(c4ccc(F)cc4F)CC3)n2)cc1,,UL97 kinase,1 µM,inhibition,,Cytomegalovirus,<50%
COc1ccc(OC)c(Cc2sc3nc(N)nc(N)c3c2C)c1,,Dihydrofolate reductase,,IC50,TYPE 2,Cryptosporidium parvum,8.4 µM
O=C(O)c1c[nH]n2c(=O)c(CC3CCC3)c(-c3ccc(OCc4ccccc4)cc3)nc12,,RNA-dependent RNA polymerase,,IC50,,Hepatitis C virus,1–10 µM
O=c1c(-c2cnccn2)cn2ccn(Cc3cccc(Cl)c3)c(=O)c2c1O,ELISA,Integrase,,IC50,,HIV-1,<0.01 µM
CCOc1cccc2nc(N)nc(N)c12,,Dihydrofolate reductase,,IC50,TYPE 1,Cryptosporidium parvum,0.35 µM
CCC(O)c1cn(Cc2ccc(Cl)c(Cl)c2)c(=O)c2c(O)c(=O)ccn12,ELISA,Integrase,,IC50,,HIV-1,0.01–0.1 µM
CC(=O)c1ccc(N2CCN(c3cncc(-c4cccc(C)c4C)n3)CC2)cc1,,UL97 kinase,,IC50,,Cytomegalovirus,<100 µM
O=C1c2c(O)c(=O)c(-c3nccs3)cn2CCN1Cc1ccccc1F,ELISA,Integrase,,IC50,,HIV-1,0.1–1 µM
c1ccc(N2CCN(c3cncc(-c4csc5ccccc45)n3)CC2)cc1,,UL97 kinase,1 µM,inhibition,,Cytomegalovirus,<50%
O=c1c(-c2ccncn2)cn2ccn(Cc3ccc(F)c(Cl)c3)c(=O)c2c1O,ELISA,Integrase,,IC50,,HIV-1,<0.01 µM
COc1cc(CN2CCc3nc(N)nc(N)c3C2)cc(OC)c1OC,,Dihydrofolate reductase,,IC50,TYPE 1,Cryptosporidium parvum,>10 µM
N#Cc1ccccc1N1CCN(c2cncc(-c3ccc(F)c(Cl)c3)n2)CC1,,UL97 kinase,1 µM,inhibition,,Cytomegalovirus,<50%
COc1ccc(-c2cc(-c3ccc(OCc4ccccc4)cc3)nc3cc(C(=O)O)nn23)cc1,,RNA-dependent RNA polymerase,,IC50,,Hepatitis C virus,1–10 µM
O=C(Nc1cn2c(c(O)c1=O)C(=O)N(Cc1cccc(Cl)c1)CC2)c1ccncc1,ELISA,Integrase,,IC50,,HIV-1,0.01–0.1 µM
Cc1ccc(N2CCN(c3cncc(-c4ccc(C(F)(F)F)cc4)n3)CC2)c(C)c1,,UL97 kinase,10 µM,inhibition,,Cytomegalovirus,>15%
O=C(Nc1cn2c(c(O)c1=O)C(=O)N(Cc1cccc(Cl)c1F)CC2)c1cccnc1,ELISA,Integrase,,IC50,,HIV-1,0.01–0.1 µM
COc1cccc(-c2ccc(-c3cnc4c(-c5nn[nH]n5)cnn4c3C3CCCCC3)cc2)c1,,RNA-dependent RNA polymerase,,IC50,,Hepatitis C virus,1–10 µM
O=c1ccn2ccn(C/C=C/c3ccccc3)c(=O)c2c1O,ELISA,Integrase,,IC50,,HIV-1,0.01–0.1 µM
CC(=O)c1cccc(-c2cncc(N3CCN(c4cccc(Cl)c4)CC3)n2)c1,,UL97 kinase,1 µM,inhibition,,Cytomegalovirus,<50%
Cn1ncnc1-c1cn2ccn(Cc3ccc(F)c(Cl)c3)c(=O)c2c(O)c1=O,ELISA,Integrase,,IC50,,HIV-1,<0.01 µM
Cc1cc(C(F)(F)F)n2nc(C(=O)O)cc2n1,,RNA-dependent RNA polymerase,,IC50,,Hepatitis C virus,>10 µM

Repeating the first 2 entries:

compound	read by	protein	dose	endpoint	strain or isolate	species	value
CS(=O)(=O)Nc1cn2ccn(Cc3cccc(Cl)c3)c(=O)c2c(O)c1=O	ELISA	Integrase		IC50		HIV-1	<0.01 µM
Nc1nc(N)c2nc(Cc3cccc(C(F)(F)F)c3)c(Cc3cccc(C(F)(F)F)c3)nc2n1		Dihydrofolate reductase		IC50	TYPE 1	Cryptosporidium parvum	>10 µM